A mixed list of measured activities; the numbers were collected in NIAID ChemDB.

All rows: whole-cell or culture tests; agent: HIV-1; read by: cytopathic effect; measure: fold resistance

Fold resistance has wild type as its base.

SMILES,changes,strain,cells,result
Cc1cn([C@H]2C[C@H](N=[N+]=[N-])[C@@H](CO)O2)c(=O)[nH]c1=O,RT-K103N Y181C,NL4-3,MT-4,0.6
Cc1cn([C@@H]2O[C@H](CO[Si](C)(C)C(C)(C)C)C3(OS(=O)(=O)C=C3N)[C@H]2O[Si](C)(C)C(C)(C)C)c(=O)n(C)c1=O,RT-L100I,NNRTI-resistant,CEM,2.17
COc1cc(C)nc(N2C(=O)CSC2c2c(Cl)cccc2Cl)n1,RT-K103N,-,CEM,526.8
CC(C)=CCOc1cc(NC(=S)c2ccsc2C)ccc1Cl,RT-Y181C,IIIB,CEM,4.67
Cc1cn([C@@H]2O[C@H](CO[Si](C)(C)C(C)(C)C)[C@]3(C(N)=CS(=O)(=O)N3C)[C@H]2O[Si](C)(C)C(C)(C)C)c(=O)n(C)c1=O,RT-E138K,-,CEM,>100
Nc1ccn([C@H]2CC[C@@H](CO)O2)c(=O)n1,RT-A62V S68G T69D V75I F77L F116Y Q151M,BI-03.97 (HXB2(RT-A62V S68G T69D V75I F77L F116Y Q151M)),MT-4,>23.4
Cc1cn([C@H]2C[C@H](N=[N+]=[N-])[C@@H](CO)O2)c(=O)[nH]c1=O,RT-V106A,E-2 (RT-V106A),CEM,3
COc1ccc2c(c1)N(C(=O)OC(C)C)[C@@H](CSC)C(=S)N2,RT-P225H,Recombinant,MT-4,4
CC(C)Nc1cccnc1N1CCN(C(=O)c2cc3cc(NS(C)(=O)=O)ccc3[nH]2)CC1,RT-K70R,DI-06.92 (HXB2 RT-K70R),MT-4,1
Cc1ccnc2c1NC(=O)c1cccnc1N2C1CC1,RT-L100I,-,CEM,5.45
CCCCCCCSc1nsc(NC(=O)Nc2ccccc2)n1,DS-resistant,NL4-3,MT-4,1.32
O=c1[nH]cnc2c1ncn2[C@H]1CC[C@@H](CO)O1,RT-L100I,R82150 (RT-L100I),MT-2,0.806
CC[C@H]1C(=O)Nc2ccc(F)cc2N1C(=O)OC(C)C,RT-E138K,TSAO-m3T-resistant,CEM,2.7
CC(C)=CCN1Cc2cc(Cl)cc3[nH]c(=O)n(c23)C[C@@H]1C,RT-P225H,Recombinant,MT-4,2.4
CC(C)=CCN1Cc2cc(Cl)cc3[nH]c(=S)n(c23)C[C@@H]1C,RT-V106A,IIIB,CEM,31.25
Cc1ccnc(N2C(=O)CSC2c2c(Cl)cccc2Cl)n1,RT-L100I,-,CEM,13.75
CC(C)=CCN1Cc2cccc3[nH]c(=S)n(c23)C[C@@H]1C,RT-R83K L100I,IIIB,MT-2,>187.5
Cc1ccnc2c1NC(=O)c1cccnc1N2C1CC1,RT-K103N Y181C,NL4-3,MT-4,>250
C=C(C)OC(=O)N1c2cc(Cl)ccc2NC(=S)C1(C)C,RT-V106A P225H,Recombinant,MT-4,125
O=c1[nH]c2ccc(Cl)cc2n1Cc1c(F)cccc1F,RT-Y188H,-,CEM,>22.7
Fc1cccc(F)c1C1SCc2nc3ccccc3n21,RT-L100I,-,CEM,2.24
CC(C)=CCOc1cc(NC(=S)c2ccoc2C)ccc1Cl,RT-L100I,IIIB,CEM,4
O=c1[nH]cnc2c1ncn2[C@H]1CC[C@@H](CO)O1,RT-A62V S68G T69D V75I F77L F116Y Q151M,BI-12.96 (HXB2(RT-A62V S68G T69D V75I F77L F116Y Q151M)),MT-4,>16.2
Cc1cn([C@H]2C[C@H](N=[N+]=[N-])[C@@H](CO)O2)c(=O)[nH]c1=O,RT-Y181C,-,CEM,2.7
Cc1cc(SC2=C(O)C[C@@](CCc3ccsc3)(C(C)C)OC2=O)c(C(C)(C)C)cc1CO,PR-L10I V31I I15V K20I L24I M36I S37N I54V R57K L63P A71V V82A,-,CEM,<1
CCOCn1c(Cc2ccccc2)c(C(C)C)c(=O)[nH]c1=O,RT-Y181C,J-2 (RT-Y181C),CEM,27
Nc1ncnc2c1ncn2CCOCP(=O)(O)O,RT-L100I,R82150 (RT-L100I),MT-2,0.789
Cc1cn([C@@H]2O[C@H](CO[Si](C)(C)C(C)(C)C)[C@]3(C(N)=CS(=O)(=O)N3C)[C@H]2O[Si](C)(C)C(C)(C)C)c(=O)n(C(=O)OC(C)(C)C)c1=O,RT-K103N,-,CEM,>2.85
CC(C)=CCOc1cc(NC(=S)c2ccoc2C)ccc1Cl,RT-V106A P225H,Recombinant,MT-4,129
Cc1cc(C)nc(N2C(=O)CSC2c2c(Cl)cccc2Cl)n1,RT-Y181C,-,CEM,101.6

3 of the rows above, restated:

SMILES | changes | strain | cells | result
Nc1ccn([C@H]2CC[C@@H](CO)O2)c(=O)n1 | RT-A62V S68G T69D V75I F77L F116Y Q151M | BI-03.97 (HXB2(RT-A62V S68G T69D V75I F77L F116Y Q151M)) | MT-4 | >23.4
Cc1cc(C)nc(N2C(=O)CSC2c2c(Cl)cccc2Cl)n1 | RT-Y181C | - | CEM | 101.6
O=c1[nH]c2ccc(Cl)cc2n1Cc1c(F)cccc1F | RT-Y188H | - | CEM | >22.7

An empty or dashed field is not shown. Conditions beyond the fields shown may differ between rows.